PubChem BioAssay AID1259414 | Drosophila RNAi Screening Center – 2018
In all, the deposit lists about 24,000 reagents; below is a random part of those with a known target gene and a result. Over the whole deposit, about 1,210 (5%) are marked active. 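Inactive calls also include excluded dsRNAs with several or no targets, genes unexpressed in JW18, and well A1, regardless of score.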 Unmarked entries are inactive. A plus sign joins genes that one reagent is predicted to hit.

Aim: 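Fly genes that alter Wolbachia amount inside host cells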 (primary screen)
System: Drosophila JW18 cells infected with Wolbachia
Knock-down reagent: long dsRNA against Drosophila genes, 0.25 µg dsRNA per well of a 384-well plate
Timing: 5 days
Conditions: cells persistently infected with Wolbachia before knock-down; no added drug
Read-out: 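Imaged fluorescence in situ signal for Wolbachia 23S rRNA per DAPI-counted host cell, given as a robust z-score within each plate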
Scale: Wolbachia per cell robust z: higher = more Wolbachia per host cell than the plate typical
Active means: 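Active if absolute robust z reaches 1.5 in two or more of three replicates, leaving out multi- or no-target dsRNAs, genes unexpressed in JW18 and A1 wells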

gene knocked down	DRSC id	Wolbachia per cell robust z, rep 1	Wolbachia per cell robust z, rep 2	Wolbachia per cell robust z, rep 3
Sod2	DRSC07554	-1.16	0.804	0.0281
Sod2	DRSC27050	-2.06	0.181	1.9
CG13689	DRSC00358	-0.207	-6.84	0.0361
CG15522	DRSC15059	-1.99 (active)	0.315	-4.99
CG15522	DRSC29412	-1.75	-0.966	-0.61
U4-U6-60K	DRSC10624	-0.978	-1.68	-0.612
SPoCk	DRSC11675	0.939	-0.826	0.915
SPoCk	DRSC11706	1.59	1.34	1.1
SPoCk	DRSC11844	1.33	-0.668	-0.32
SPoCk	DRSC11845	0.872	-0.0221	-7.83
SPoCk	DRSC24007	0.0303 (active)	1.83	1.62
Chs2	DRSC11830	0.985	-6.31	0.245
ymp	DRSC13720	0.296	-0.803	-2.74
ymp	DRSC14482	-0.283	0.509	0.0722
Mcm7	DRSC11219	0.304	0.184	1.16
Mcm7	DRSC24311	1.4	-0.00248	0.721
TAF1B	DRSC16001	-1.03	-1.48	-0.716

4 entries already listed, ordered by “Wolbachia per cell robust z, rep 1”, highest first:
gene knocked down	DRSC id	Wolbachia per cell robust z, rep 1	Wolbachia per cell robust z, rep 2	Wolbachia per cell robust z, rep 3
Mcm7	DRSC24311	1.4	-0.00248	0.721
Mcm7	DRSC11219	0.304	0.184	1.16
ymp	DRSC13720	0.296	-0.803	-2.74
ymp	DRSC14482	-0.283	0.509	0.0722

Further entries follow.
gene knocked down	DRSC id	Wolbachia per cell robust z, rep 1	Wolbachia per cell robust z, rep 2	Wolbachia per cell robust z, rep 3
CG6885	DRSC10740	-0.0987	-0.0774	-2.17
Fmr1	DRSC16674	0.708	-2.82	0.45
Fmr1	DRSC26781	-7.74	1.13	1.91
CR42653	DRSC40594	0.503	-0.799	1.09
CG15533	DRSC15069	-3.92	-1.69	0.978
CG15533	DRSC30031	-5.11	-1.01	0.175
CG13016	DRSC06271	-1.04	1.56	-0.115
CG31075	DRSC16016	-2.8 (active)	1.65	-1.56
Pdha	DRSC18413	-0.111	0.585	0.0662
Pdha	DRSC27138	-0.0232	-1.62	-0.761
asRNA:CR42742 + CG9897	DRSC04595	1.21	0.571	0.249
CG8170	DRSC07087	2.11	1.21	-0.189
CG4372	DRSC04466	-0.125	0.439	0.721
Prosbeta4R1	DRSC38933	-0.297	-0.737	0.00684
Mp	DRSC10193	-1.91	-3.27	1.16
Mp	DRSC11029	-0.206	-3.15	-3.98
Mp	DRSC11030	-4.83	-0.432	1.02
Kmn1	DRSC19666	1.75	1.04	0.317
Kmn1	DRSC27299	-0.257	-0.371	-0.622
Ppn	DRSC15328	-4.8 (active)	0.633	-3.69
Ppn	DRSC27718	-0.915	0.195	0.638
Nt5c	DRSC06711	-1.08	1.26	1.75
Nt5c	DRSC27240	0.236	1.02	1.1
HisT	DRSC05051	1.64	0.608	1.14
HisT	DRSC06405	1.45	-0.358	-0.199
CG7295	DRSC00699	-0.625	1.34	1
eve	DRSC24980	-1.45	0.715	-0.807
eve	DRSC40684	-1.77	0.121	0.0313
CG17575	DRSC06682	-1.08	-0.934	0.0943
CG17575	DRSC26534	-0.98	-0.977	1.16
